Pooled drug test results. Numbers come from NIAID ChemDB, via PubChem.

Shared fields: enzyme or target tests

Inhibition is in % at the dose shown (toxicity tests: loss of growth or viability).

smiles,target,read-out,species,dose,value
O=C(O)c1ccc2c(c1)nc(-c1ccc3nc(-c4ccccc4)c(-c4ccccc4)nc3c1)n2C1CCCCC1,NS5B polymerase,inhibition,Hepatitis C virus,33 µM,97.29%
CC[C@@H](C=O)NC(=O)[C@@H]1C[C@@H](OC(=O)c2ccccc2)CN1C(=O)[C@@H](NC(=O)[C@@H](NC(=O)c1cnccn1)C(C)C)C(C)C,NS3 protease,Ki,Hepatitis C virus,,1–100 µM
CS(=O)(=O)c1ccc(-c2cc(NC(=O)c3ccc(Cl)cc3Cl)c(C(=O)O)s2)cc1,NS3 ATPase,IC50,Hepatitis C virus,,<5 µM
CC1(C)C(CC(=O)O)CC1c1ccc2cc(-c3nc4cc(C(=O)O)ccc4n3C3CCCCC3)ccc2n1,NS5B polymerase,inhibition,Hepatitis C virus,33 µM,99.04%
NC(C(=O)Nc1ccsc1-c1nc(C(=O)O)c(O)c(=O)[nH]1)c1ccc2ccccc2c1,HCV polymerase,IC50,Hepatitis C virus,,<25 µM
Cc1cc(-c2ccc3cc(-c4nc5cc(C(=O)O)ccc5n4C4CCCCC4)ccc3n2)c(O)c([N+](=O)[O-])c1,NS5B polymerase,inhibition,Hepatitis C virus,33 µM,104%
FC(F)(F)Oc1cccc(COc2ccc(-c3cnc4c(-c5nn[nH]n5)cnn4c3C3CCCCC3)cc2)c1,RNA-dependent RNA polymerase,IC50,Hepatitis C virus,,1–10 µM
COc1nc(Nc2ccc3[nH]ncc3c2)nc(N2CCN(CCO)CC2)n1,DNA polymerase,inhibition,Hepatitis B virus,1 µg/mL,55%
CC[C@@H](C=O)NC(=O)[C@@H]1C[C@@H](OCc2ccccc2)CN1C(=O)[C@@H](NC(=O)[C@H](CC1CCCCC1)NC(=O)c1cnccn1)C(C)C,NS3 protease,Ki,Hepatitis C virus,,1–100 µM
COc1nc(NCCc2c[nH]c3ccccc23)nc(Nc2ccc3cn[nH]c3c2)n1,DNA polymerase,inhibition,Hepatitis B virus,0.1 µg/mL,26%
O=C(Nc1cscc1-c1nc(C(=O)O)c(O)c(=O)[nH]1)NC(CO)c1ccccc1,HCV polymerase,IC50,Hepatitis C virus,,<25 µM
COC(=O)[C@@H]1CCCN1c1nc(Nc2ccc3cn[nH]c3c2)nc(OC)n1,DNA polymerase,IC50,Hepatitis B virus,,0.1–1 µg/mL
Cc1ccc(C(=O)N(Cc2ccccc2C)c2cc(-c3ccccc3)sc2C(=O)O)cc1,NS3 ATPase,IC50,Hepatitis C virus,,<5 µM
O=C(O)c1cc2nc(-c3ccc(Cl)cc3)cc(-c3cccc(F)c3)n2n1,RNA-dependent RNA polymerase,IC50,Hepatitis C virus,,>10 µM
O=C(O)c1ccc2c(c1)nc(-c1ccc3nc(-c4ccccc4-c4ccncc4)ccc3c1)n2C1CCCCC1,NS5B polymerase,inhibition,Hepatitis C virus,100 µM,98.8%
COc1nc(Nc2ccc3[nH]ncc3c2)nc(NC2CC2)n1,DNA polymerase,inhibition,Hepatitis B virus,0.1 µg/mL,20%
CNC(=O)c1c(-c2ccc(F)cc2)oc2cc(C3CCCN3C(=O)NC)c(OC)cc12,Nonstructural protein 5B,IC50,Hepatitis C virus,,≤0.5 µM
O=C(O)c1sc(-c2ccccc2)cc1NC(=O)N1CCN(c2ccc(F)cc2)CC1,NS3 ATPase,IC50,Hepatitis C virus,,>20 µM
Clc1ccc(COc2ccc(-c3cnc4c(-c5nn[nH]n5)cnn4c3C3CCCCC3)cc2)cc1Cl,RNA-dependent RNA polymerase,IC50,Hepatitis C virus,,1–10 µM
O=C(Nc1ccsc1-c1nc(C(=O)O)c(O)c(=O)[nH]1)OCc1c(Cl)cccc1Cl,HCV polymerase,IC50,Hepatitis C virus,,<25 µM
CNC(=O)c1c(-c2ccccc2)oc2cc(OC)c(OC)cc12,Nonstructural protein 5B,IC50,Hepatitis C virus,,≤0.5 µM
O=C(O)c1ccc2c(c1)nc(-c1ccc3nc(-c4ccc(F)cc4)c(-c4ccc(F)cc4)nc3c1)n2C1CCCCC1,NS5B polymerase,inhibition,Hepatitis C virus,33 µM,97.88%
COc1nc(Nc2ccc3cn[nH]c3c2)nc(N2CCCC2)n1,DNA polymerase,inhibition,Hepatitis B virus,0.01 µg/mL,9%
O=C(Nc1cscc1-c1nc(C(=O)O)c(O)c(=O)[nH]1)OCc1ccc(F)cc1F,HCV polymerase,IC50,Hepatitis C virus,,<25 µM
CC(C)Cc1ccc(-c2cc(NS(=O)(=O)c3cc(C#N)ccc3Cl)c(C(=O)O)s2)cc1,NS3 ATPase,IC50,Hepatitis C virus,,>20 µM
O=C(O)c1nc(-c2ccc(Cl)s2)[nH]c(=O)c1O,HCV polymerase,IC50,Hepatitis C virus,,<25 µM
COc1nc(NCCCN2CCCC2=O)nc(Nc2ccc3[nH]ncc3c2)n1,DNA polymerase,IC50,Hepatitis B virus,,0.1–1 µg/mL
CNC(=O)c1c(-c2ccc(F)cc2)oc2cc(C3CNC(=O)O3)c(OC)cc12,Nonstructural protein 5B,IC50,Hepatitis C virus,,≤0.5 µM
c1ccc(COc2cccc(-c3cnc4c(-c5nn[nH]n5)cnn4c3C3CCCCC3)c2)cc1,RNA-dependent RNA polymerase,IC50,Hepatitis C virus,,1–10 µM
O=C(Cc1ccc(Cl)cc1Cl)Nc1ccsc1-c1nc(C(=O)O)c(O)c(=O)[nH]1,HCV polymerase,IC50,Hepatitis C virus,,<25 µM
CN(C(=O)c1cc2ccccc2o1)c1cc(-c2ccccc2)sc1C(=O)O,NS3 ATPase,IC50,Hepatitis C virus,,>20 µM
CC(C)Cc1c(-c2ccc(OCc3ccccc3)cc2)cnc2cc(C(=O)O)nn12,RNA-dependent RNA polymerase,IC50,Hepatitis C virus,,>10 µM
CC[C@H](NC(=O)[C@H](CC(C)C)NC(=O)[C@@H](NC(=O)[C@@H](NC(=O)[C@H](CC(=O)O)NC(=O)[C@@H](N)CCC(=O)O)C(C)C)C(C)C)C(=O)c1nc2ccccc2o1,NS3 protease,Ki,Hepatitis C virus,,1–100 µM
COc1nc(Nc2ccc3cn[nH]c3c2)nc(N2CCN(C)CC2)n1,DNA polymerase,inhibition,Hepatitis B virus,1 µg/mL,53%
CC[C@@H](C=O)NC(=O)[C@@H]1C[C@@H](OCc2ccccc2)CN1C(=O)[C@@H](NC(=O)c1ccc[nH]1)C(C)C,NS3 protease,Ki,Hepatitis C virus,,1–100 µM
NC(=O)CC(NC(=O)c1ccc2c(c1)nc(-c1ccc3nc(-c4ccccc4)cnc3c1)n2C1CCCCC1)C(=O)O,NS5B polymerase,inhibition,Hepatitis C virus,33 µM,75.95%
O=C(O)c1nc(-c2c[nH]c3ccccc23)[nH]c(=O)c1O,HCV polymerase,IC50,Hepatitis C virus,,<100 µM
O=C(O)c1cnn2c(C3CCCCC3)c(/C=C/c3ccccc3)cnc12,RNA-dependent RNA polymerase,IC50,Hepatitis C virus,,1–10 µM
CCc1cc2c(C(=O)NC)c(-c3ccc(F)cc3)oc2cc1C(C)(C)O,Nonstructural protein 5B,IC50,Hepatitis C virus,,≤0.5 µM
Cc1nn2c(C3CCCCC3)c(-c3ccc(F)cc3)cnc2c1C(=O)N[C@@H](Cc1ccc(O)cc1)C(=O)O,RNA-dependent RNA polymerase,IC50,Hepatitis C virus,,<1 µM
O=C(O)c1ccc2c(c1)nc(-c1ccc3nc(-c4ccccc4)cc(NCCCn4ccnc4)c3c1)n2C1CCCCC1,NS5B polymerase,inhibition,Hepatitis C virus,100 µM,95.64%

Repeating the final 6 entries:

{"smiles": "NC(=O)CC(NC(=O)c1ccc2c(c1)nc(-c1ccc3nc(-c4ccccc4)cnc3c1)n2C1CCCCC1)C(=O)O", "target": "NS5B polymerase", "read-out": "inhibition", "species": "Hepatitis C virus", "dose": "33 µM", "value": "75.95%"}
{"smiles": "O=C(O)c1nc(-c2c[nH]c3ccccc23)[nH]c(=O)c1O", "target": "HCV polymerase", "read-out": "IC50", "species": "Hepatitis C virus", "value": "<100 µM"}
{"smiles": "O=C(O)c1cnn2c(C3CCCCC3)c(/C=C/c3ccccc3)cnc12", "target": "RNA-dependent RNA polymerase", "read-out": "IC50", "species": "Hepatitis C virus", "value": "1–10 µM"}
{"smiles": "CCc1cc2c(C(=O)NC)c(-c3ccc(F)cc3)oc2cc1C(C)(C)O", "target": "Nonstructural protein 5B", "read-out": "IC50", "species": "Hepatitis C virus", "value": "≤0.5 µM"}
{"smiles": "Cc1nn2c(C3CCCCC3)c(-c3ccc(F)cc3)cnc2c1C(=O)N[C@@H](Cc1ccc(O)cc1)C(=O)O", "target": "RNA-dependent RNA polymerase", "read-out": "IC50", "species": "Hepatitis C virus", "value": "<1 µM"}
{"smiles": "O=C(O)c1ccc2c(c1)nc(-c1ccc3nc(-c4ccccc4)cc(NCCCn4ccnc4)c3c1)n2C1CCCCC1", "target": "NS5B polymerase", "read-out": "inhibition", "species": "Hepatitis C virus", "dose": "100 µM", "value": "95.64%"}

Blank or dashed fields: not listed here. Two numbers with a dash give a range or band. Neighbouring rows are from separate reports. ICn: concentration for n% inhibition.